A mixed list of measured activities; the numbers were collected in NIAID ChemDB.

MIC bound: limit read from a one-dose screen.

| compound | kind | organism | strain or isolate | cells | target | method | read-out | dose | value |
|---|---|---|---|---|---|---|---|---|---|
| C/C(=N\NC(=O)c1ccncc1)c1cccc(C(F)(F)F)c1 | culture | Mycobacterium tuberculosis | H37Rv | VERO |  |  | MIC |  | 0.07675 µg/mL |
| ClC(Cl)(Cl)C(c1ccc2ccccc2c1)c1ccc2ccccc2c1 | culture | Mycobacterium tuberculosis | H37Rv |  |  |  | MIC |  | >100 µg/mL |
| NC(=O)c1ccccc1-c1cncc(N2CCN(c3ccncc3)CC2)n1 | target | Cytomegalovirus |  |  | UL97 kinase |  | inhibition | 10 µM | >15% |
| Cc1cc(C)c(Cl)c(S(N)(=O)=O)c1 | culture | Mycobacterium tuberculosis | H37Rv |  |  |  | MIC |  | >100 µg/mL |
| O=S1(F)=NP(N2CC2)(N2CC2)=NP(N2CC2)(N2CC2)=N1 | culture | Mycobacterium tuberculosis | H37Rv |  |  | BACTEC | inhibition | 128 µg/mL | 58% |
| CC(=O)c1ccc(-c2cncc(N3CCC(c4ccccc4)CC3)n2)cc1 | target | Cytomegalovirus |  |  | UL97 kinase |  | inhibition | 1 µM | <50% |
| N[C@@H](Cc1ccc2oc3cc(=O)c4ccccc4c-3nc2c1)C(=O)O | culture | Mycobacterium tuberculosis | H37Rv |  |  | BACTEC | MIC bound |  | >12.5 µg/mL |
| CC(=O)c1ccccc1 | culture | Mycobacterium tuberculosis | H37Rv |  |  |  | MIC |  | >100 µg/mL |
| Clc1cccc(N2CCN(c3cncc(-c4ccc5ccccc5c4)n3)CC2)c1 | target | Cytomegalovirus |  |  | UL97 kinase |  | IC50 |  | <100 µM |
| CN1CC[C@]23c4ccccc4N[C@@H]1[C@]21CCN(C)[C@@H]3Nc2ccccc21 | culture | Mycobacterium tuberculosis | H37Rv |  |  | BACTEC | MIC |  | ≥12.8 µg/mL |
| O=C1CC(C(=O)O)=NN1 | culture | Mycobacterium tuberculosis | H37Rv |  |  |  | MIC |  | >100 µg/mL |
| Nc1ccn([C@@H]2O[C@H](C(O[C@@H]3O[C@H](CO)[C@@H](O)[C@H](N)[C@H]3O)[C@@H](O)[C@@H](O)[C@@H](O)[C@@H](O)CO)[C@@H](N)[C@H](O)[C@H]2O)c(=O)n1 | culture | Mycobacterium tuberculosis | EMB-R |  |  |  | MIC |  | 12.5 µg/mL |
| Fc1ccc(-c2cncc(N3CCN(c4ccncc4)CC3)n2)cc1 | target | Cytomegalovirus |  |  | UL97 kinase |  | inhibition | 1 µM | <50% |
| Cc1cc2c(cc1Cl)SC(NNc1ccc([N+](=O)[O-])cc1)=NS2(=O)=O | culture | Mycobacterium tuberculosis | H37Rv |  |  | resazurin | inhibition | 6.25 µg/mL | 41% |
| OCc1ccc(-c2cncc(N3CCN(c4ccccn4)CC3)n2)cc1 | target | Cytomegalovirus |  |  | UL97 kinase |  | IC50 |  | <10 µM |
| O=C(O)c1ccc(O)cc1O | culture | Mycobacterium tuberculosis | H37Rv |  |  |  | MIC |  | >100 µg/mL |
| C[C@H](Cc1ccc(O)c(O)c1)[C@@H](C)Cc1ccc(O)c(O)c1 | culture | Candida albicans | CCC 126-2000 |  |  | broth dilution | MIC80 |  | 250 µg/mL |
| Nc1cccc(NC(C(O)C(O)C(O)C(O)CO)S(=O)(=O)[O-])n1.[Na+] | culture | Mycobacterium tuberculosis | H37Rv |  |  |  | MIC |  | >100 µg/mL |
| Cc1ccc(NNc2cc(=O)[nH]c(=O)[nH]2)cc1Cl | culture | Mycobacterium tuberculosis | H37Rv | VERO |  |  | MIC |  | 3.13 µg/mL |
| Nc1ccccc1C1CCCCC1 | culture | Mycobacterium tuberculosis | H37Rv |  |  |  | MIC |  | 100 µg/mL |
| O=C1c2cc3c(-c4ccccc4)oc(-c4ccccc4)c3cc2C(=O)c2c(O)ccc(O)c21 | culture | Mycobacterium tuberculosis | H37Rv |  |  | BACTEC | MIC bound |  | >12.5 µg/mL |
| OC(Cc1ccccc1)c1ccccc1 | culture | Mycobacterium tuberculosis | H37Rv |  |  |  | MIC |  | >100 µg/mL |
| CC1=CC=CN2CCC(=O)N=C12 | culture | Mycobacterium tuberculosis | H37Rv |  |  | resazurin | inhibition | 6.25 µg/mL | 5% |
| O=C(O)C1CSC(c2ccc(O)cc2)N1 | culture | Mycobacterium tuberculosis | H37Rv |  |  |  | MIC |  | 100 µg/mL |
| O=C(Nc1cc(S(=O)(=O)[O-])cc2cc(S(=O)(=O)[O-])ccc12)c1ccccc1 | culture | Rhinovirus |  | Human embryonic lung cells |  | cytopathic effect | inhibition | 10 µg/mL | 10% |
| C/C=c1\[nH]c(=O)/c(=C/c2ccccc2)[nH]c1=O | culture | Mycobacterium tuberculosis | H37Rv |  |  | BACTEC | MIC |  | ≥12.5 µg/mL |
| Fc1ccc(N2CCCCC2)c(NC(=S)c2ccncc2)c1 | host protein |  |  |  | ALK | kinase activity | inhibition | 10 µM | 39% |
| N#Cc1cccc(-c2cncc(N3CCN(c4ccncc4)CC3)n2)c1 | target | Cytomegalovirus |  |  | UL97 kinase |  | inhibition | 1 µM | <50% |
| O=S(=O)([O-])c1ccc2c(O)cc(S(=O)(=O)[O-])cc2c1 | culture | Herpes simplex virus |  | Human conjunctiva cells |  | cytopathic effect | inhibition | 5 µg/mL | 0% |
| CCC1=CC(CC)C2C(=O)N(c3ccc(C)cc3)C1C2C(=O)O | culture | Mycobacterium tuberculosis | H37Rv |  |  |  | MIC |  | >100 µg/mL |
| COc1ccc(CN2CCCN(Cc3ccc(OC)cc3OC)C2c2ccc(N(C)C)cc2Cl)c(OC)c1 | culture | Mycobacterium tuberculosis | H37Rv |  |  | BACTEC | MIC bound |  | >12.5 µg/mL |
| Cc1ccc(C(=O)Nc2ccc(S(=O)(=O)O)c3cc(S(=O)(=O)O)cc(S(=O)(=O)O)c23)cc1NC(=O)c1cccc(NC(=O)Nc2cccc(C(=O)Nc3cc(C(=O)Nc4ccc(S(=O)(=O)O)c5cc(S(=O)(=O)O)cc(S(=O)(=O)O)c45)ccc3C)c2)c1 | culture | Adenovirus | TYPE 3 | Human amnion AV3 cells |  | cytopathic effect | inhibition | 50 µg/mL | 10% |
| C=CCc1ccc(O)c(OC)c1 | culture | Candida tropicalis | 2804 |  |  | turbidity | MIC90 |  | 475 µg/mL |
| C#CC[C@@H](C(=O)N[C@H](/C=C/C(=O)OCC)C[C@@H]1CCNC1=O)n1cccc(NC(=O)c2cc(C)on2)c1=O | culture | Rhinovirus | Serotype 95 | H1-HELA |  | cytopathic effect / XTT | EC50 |  | 0.048 µM |
| O=C(c1cccc(O)c1)c1ccc(O)c(O)c1O | culture | Mycobacterium tuberculosis | H37Rv |  |  |  | MIC |  | 25 µg/mL |
| Clc1cccc(N2CCN(c3cncc(-c4csc5ccccc45)n3)CC2)c1 | target | Cytomegalovirus |  |  | UL97 kinase |  | inhibition | 10 µM | >15% |
| CC(C)CC(NC(=O)C(Cc1ccccc1)NC(=O)C1CCCN1C(=O)OCc1ccccc1)C(=O)OC(C)(C)C | culture | Mycobacterium tuberculosis | H37Rv |  |  | BACTEC | MIC bound |  | >12.5 µg/mL |
| CN(C)C(=O)c1cnc2ccccc2c1.Cl | culture | Mycobacterium tuberculosis | H37Rv |  |  |  | MIC |  | >100 µg/mL |
| O=C(Nc1cc(S(=O)(=O)O)cc2cc(S(=O)(=O)O)cc(O)c12)c1ccccc1 | culture | Herpes simplex virus |  | Human amnion AV3 cells |  | cytopathic effect | inhibition | 5 µg/mL | 0% |
| CN(C)CCC(=O)c1cccc([N+](=O)[O-])c1.Cl | culture | Mycobacterium tuberculosis | H37Rv |  |  |  | MIC |  | >100 µg/mL |
| Cc1cc2c(cc1C)NC1=C(N2)OC(c2c[nH]c3ccc(COc4ccccc4)cc23)C1=O | culture | Mycobacterium tuberculosis | H37Rv |  |  | BACTEC | inhibition | 12.5 µg/mL | -16% |
| CCO/N=C/c1ccc(OCCC2CCN(c3ccc(C)nn3)CC2)cc1 | culture | Rhinovirus | 56822 (ICAM-1 receptor group 42) | KB |  | neutral red | EC50 |  | 0.136 µM |
| c1ccc(N=C(c2ccccc2)c2ccccc2)cc1 | culture | Mycobacterium tuberculosis | H37Rv |  |  |  | MIC |  | 100 µg/mL |
| CSc1ccc(-c2cncc(N3CCN(c4ccc(C)cc4)CC3)n2)cc1 | target | Cytomegalovirus |  |  | UL97 kinase |  | IC50 |  | <10 µM |
| Cc1cc(-c2ccc(N=Nc3c(S(=O)(=O)O)cc4cc(S(=O)(=O)O)cc(N)c4c3O)c(C)c2)ccc1N=Nc1c(S(=O)(=O)O)cc2cc(S(=O)(=O)O)cc(N)c2c1O | culture | Herpes simplex virus |  | Human conjunctiva cells |  | cytopathic effect | inhibition | 5 µg/mL | 30% |
| CCN(CC)c1ccc([N+](=O)[O-])c(N)c1 | culture | Mycobacterium tuberculosis | H37Rv |  |  |  | MIC |  | >100 µg/mL |
| O=C1C=C(Nc2ncccn2)c2ccccc2C1=O | culture | Mycobacterium tuberculosis | H37Rv | VERO |  | resazurin | MIC |  | 3.13 µg/mL |
| CCOC(=O)c1nn(-c2ccc([As](=O)(O)O)cc2)cc1O | culture | Mycobacterium tuberculosis | H37Rv |  |  |  | MIC |  | >100 µg/mL |
| NNC(=O)CNC(=O)C(Cc1c[nH]c2ccccc12)NC(=O)OCc1ccccc1 | culture | Mycobacterium tuberculosis | H37Rv |  |  | BACTEC | MIC bound |  | >12.5 µg/mL |
| Nc1c(S(=O)(=O)O)cc2cc(S(=O)(=O)O)cc(O)c2c1O | culture | Adenovirus | TYPE 3 | Human embryonic lung cells |  | cytopathic effect | inhibition | 5 µg/mL | 65% |
| CCOC(=O)C(C1=C(O)c2ccccc2C(=O)C1=O)C1=C(O)c2ccccc2C(=O)C1=O | culture | Mycobacterium tuberculosis | H37Rv |  |  | BACTEC | MIC bound |  | >12.8 µg/mL |
| CSc1ccc(-c2cncc(N3CCN(c4ccc(C)c(C)c4)CC3)n2)cc1 | target | Cytomegalovirus |  |  | UL97 kinase |  | IC50 |  | <10 µM |
| COc1ccc(OC)c(-n2nnc3ccccc3c2=O)c1 | culture | Mycobacterium tuberculosis | H37Rv |  |  | BACTEC | MIC bound |  | >12.5 µg/mL |
| CN(C)c1cc[c]([Sb]([c]2ccc(N(C)C)cc2)[c]2ccc(N(C)C)cc2)cc1 | culture | Mycobacterium tuberculosis | H37Rv |  |  |  | MIC |  | >100 µg/mL |
| O=C(N/N=C/C=C/c1ccccc1)C(O)C(O)C(=O)N/N=C/C=C/c1ccccc1 | culture | Mycobacterium tuberculosis | H37Rv |  |  | BACTEC | MIC |  | ≥12.5 µg/mL |
| CN(C)c1ccc(/C=C/c2ccnc3c2ccc2ccccc23)cc1 | culture | Mycobacterium tuberculosis | H37Rv |  |  |  | MIC |  | >100 µg/mL |
| CS(=O)(=O)OCCN(CCOS(C)(=O)=O)c1ccc(N=Nc2ccccc2C(=O)O)cc1 | culture | Mycobacterium tuberculosis | H37Rv |  |  | resazurin | inhibition | 6.25 µg/mL | -7% |
| Nc1cc2c(cc1Br)C(=O)c1ccccc1C2=O | culture | Mycobacterium tuberculosis | H37Rv |  |  |  | MIC |  | >100 µg/mL |
| CN(C)CCn1ncc(Sc2cc([N+](=O)[O-])ccc2N)c(Cl)c1=O | culture | Mycobacterium tuberculosis | H37Rv |  |  | BACTEC | MIC bound |  | >12.5 µg/mL |
| COc1ccc(C)c2c1N(CC(O)CO)CCC2 | culture | Mycobacterium tuberculosis | H37Rv |  |  |  | MIC |  | 100 µg/mL |

Blank or dashed fields: not listed here. ECn is the concentration giving n% inhibition of infection, replication or growth. ICn: concentration for n% inhibition. MIC50, MIC90 and the like: level of inhibition, or share of isolates inhibited. Percent inhibition refers to the dose given; in toxicity tests it is the harm to the cells. Neighbouring rows are from separate reports.